Record: PubChem BioAssay AID624099 (ICCB-Longwood, 2012)

Aim: 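Host factors E2 relies on to silence an HPV18 LCR reporter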 (primary screen)
System: human C33A cervical carcinoma cells (HPV-negative) stably expressing BPV1 E2 and an HPV18 LCR luciferase reporter
Reagents: siRNA pool against human genes, 40 nM
Timing: 72 h
Measurement: 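HPV18 LCR reporter light per well, converted to plate-wise z-scores that exclude control wells, and averaged over triplicate plates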
Scale: mean z-score and z-score: higher = stronger reporter signal, weaker E2 silencing
Rule for the call: 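Hit if mean z-score reaches 2 and two or more of three replicate z-scores also reach 2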
The whole screen tested about 21,000 reagents; below is an unselected part. Over the whole deposit, 497 (2.4%) were called active. 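Higher z means weaker E2 silencing; only reporter increases were scored, and knock-downs that hurt cell survival may mask genuine repressor factors.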 The numbers tell different reagents against one gene apart.

The opening 3 entries as a preview:
no.	gene	reagent	mean z-score	z-score, replicate A	z-score, replicate B	z-score, replicate C	call
1	EOGT	1	-0.24	-0.41	0.03	-0.34	inactive
2	LOC155060	1	0.38	0.57	0.23	0.35	inactive
3	CACNB4	1	-1.87	-2.02	-1.76	-1.81	inactive

The list itself, repeating the preview:
no.	gene	reagent	mean z-score	z-score, replicate A	z-score, replicate B	z-score, replicate C	call
1	EOGT	1	-0.24	-0.41	0.03	-0.34	inactive
2	LOC155060	1	0.38	0.57	0.23	0.35	inactive
3	CACNB4	1	-1.87	-2.02	-1.76	-1.81	inactive
4	DDX17	1	0.1	0.02	0.12	0.15	inactive
5	TRIM17	1	-0.95	-0.91	-0.79	-1.17	inactive
6	SRC	1	-0.69	-0.52	-0.78	-0.78	inactive
7	LOC401198 (retired record)	1	-0.28	0.07	-0.44	-0.46	inactive
8	RUVBL2	1	-0.3	-0.55	-0.35	0.01	inactive
9	TRMT112P6	1	-0.04	-0.09	0.09	-0.12	inactive
10	DSCR10	1	-0.71	-0.64	-0.63	-0.85	inactive
11	NDOR1	1	-0.79	-0.45	-0.64	-1.28	inactive
12	NDOR1	2	-0.84	-0.54	-0.59	-1.39	inactive
13	CRYGC	1	-0.91	-0.77	-1.02	-0.94	inactive
14	XYLB	1	-0.14	-0.06	-0.35	0	inactive
15	HMGB3P30	1	0.7	0.58	0.58	0.94	inactive
16	C22orf31	1	0.9	0.76	0.93	1.02	inactive
17	PGLYRP1	1	0.89	0.69	1	0.98	inactive
18	LINC02906	1	-0.14	-0.24	-0.33	0.14	inactive
19	MIER3	1	-0.62	-0.13	-0.94	-0.78	inactive
20	EIF4G3	1	-0.38	-0.47	-0.25	-0.44	inactive
21	ZFP36L1	1	-0.23	0.82	-0.5	-0.99	inactive
22	PHKA2	1	-0.64	-0.47	-0.75	-0.7	inactive
23	MRRF	1	-0.85	-0.89	-1	-0.66	inactive
24	LOC152122 (retired record)	1	0.42	0.52	0.49	0.24	inactive
25	POLR3K	1	0.77	0.84	0.8	0.66	inactive
26	C1orf174	1	0.47	0.2	0.78	0.45	inactive
27	ANKRD10	1	0.32	0.34	0.23	0.38	inactive
28	PTPRS	1	-1.27	-1.3	-1.1	-1.39	inactive
29	DTD2	1	0.03	-0.22	0.25	0.05	inactive
30	AGFG1	1	-0.21	-0.26	-0.09	-0.29	inactive
31	TPGS2	1	0.52	0.57	0.57	0.41	inactive
32	GDAP1	1	0.92	0.79	1.09	0.88	inactive
33	EIF5A2	1	-0.95	-0.99	-1.04	-0.84	inactive
34	NGRNP3	1	-0.74	-0.9	-0.91	-0.42	inactive
35	IFTAP	1	0.54	0.87	0.76	-0.02	inactive
36	PTGER4	1	1.92	1.81	2.01	1.93	inactive
37	ORAI3	1	0.06	-0.03	-0.1	0.3	inactive
38	BTNL9	1	0.17	0.33	-0.15	0.33	inactive
39	FGF13	1	-0.99	-1.07	-0.85	-1.05	inactive
40	FGF13	2	0.23	0.6	0.11	-0.02	inactive
